According to patent publication US5112519A, “Process for production of biodegradable surfactants and compositions thereof” (Mobil Oil Corporation, priority 1989, dated 1992):

Tested on: inoculum from Mobil Technical Center and Paulsboro refinery waste treatment plants
Experiment: Microbiological conversion of tridecanols to carbon dioxide

For CCCCCCCCCCCCCO [1-Tridecanol], the “cumulative % biodegraded to carbon dioxide” value (from here on “cumulative % biodegraded”) (2 days incubated) was 26.3%, the “cumulative % biodegraded” value (7 days incubated) was 36.3% and the “cumulative % biodegraded” value (14 days incubated) was 63.4%. For the same compound, the “cumulative % biodegraded” value (21 days incubated) was 68.3% and the “cumulative % biodegraded” value (28 days incubated) was 76.6%.
